# Publication PMC11096021 (Immunity, 2024)
# B1: 09–1B12-UCA Fab (Lys-C digest of recombinant IgG, used for BLI) (Fab, V domains shown)
# VH: QVQLVQSGAEVKKPGASVKVSCKASGYTFTSYGISWVRQAPGQGLEWMGWISAYNGNTNYAQKLQGRVTMTTDTSTSTAYMELRSLRSDDTAVYYCARGLLQGVVILDSYYYTMDVWGQGTTVTVSS
# VL: not shown
# Target: A/California/07/2009 H1 trimer (biotinylated, for BLI) (Influenza A virus A/California/07/2009 …, UniProt C3W5X2, strain, biotin on the avi tag (BirA))
# Conditions: both partners purified
binder,measurement,value
B1,binding result,no binding
